Amino acid sequences for entries named in this document (tags omitted). Residues count along the entry.
UniProt P36544, 23-502 limits assumed: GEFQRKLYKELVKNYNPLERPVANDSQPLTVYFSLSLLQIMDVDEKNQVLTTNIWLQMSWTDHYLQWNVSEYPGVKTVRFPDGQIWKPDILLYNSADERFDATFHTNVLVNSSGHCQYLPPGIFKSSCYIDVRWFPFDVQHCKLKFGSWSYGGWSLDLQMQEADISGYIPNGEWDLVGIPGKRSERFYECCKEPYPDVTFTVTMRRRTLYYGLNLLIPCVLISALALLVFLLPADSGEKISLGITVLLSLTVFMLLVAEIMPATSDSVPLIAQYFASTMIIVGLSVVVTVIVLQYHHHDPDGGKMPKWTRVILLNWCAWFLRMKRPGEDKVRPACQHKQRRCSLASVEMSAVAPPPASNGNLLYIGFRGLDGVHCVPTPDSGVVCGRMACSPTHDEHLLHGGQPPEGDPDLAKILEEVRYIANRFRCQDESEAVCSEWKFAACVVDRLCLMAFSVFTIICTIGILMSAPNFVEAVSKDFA

According to PMC7460214, “α-Conotoxin as Potential to α7-nAChR Recombinant Expressed in Escherichia coli” (2020):

Target: hα7 nAChR (Homo sapiens, UniProt P36544)

Compound `CC(C)C[C@@H]1NC(=O)[C@H](CCCNC(=N)N)NC(=O)[C@@H]2CSSC[C@H](NC(=O)[C@H](CCC(=O)O)NC(=O)[C@@H](N)CC(=O)O)C(=O)N[C@@H](CSSC[C@@H](C(=O)N[C@@H](CCCNC(=N)N)C(=O)N[C@@H](CCCNC(=N)N)C(=O)N[C@@H](CCCNC(=N)N)C(=O)O)NC(=O)[C@H](C)NC(=O)[C@H](Cc3c[nH]cn3)NC(=O)[C@@H]3CCCN3C(=O)[C@H](CC(N)=O)NC(=O)[C@H](CC(N)=O)NC1=O)C(=O)N[C@@H](CO)C(=O)N[C@@H](CC(N)=O)C(=O)N1CCC[C@H]1C(=O)N[C@@H](C)C(=O)N2` has an IC50 of 9.7 nM.
With `CC(C)[C@@H]1NC(=O)[C@H](Cc2cnc[nH]2)NC(=O)[C@@H]2CCCN2C(=O)[C@H](CC(N)=O)NC(=O)[C@H](CC(N)=O)NC(=O)[C@H](C(C)C)NC(=O)[C@H](CCCNC(=N)N)NC(=O)[C@@H]2CSSC[C@H](NC(=O)[C@H](CCC(=O)O)NC(=O)[C@@H](N)CC(=O)O)C(=O)N[C@@H](CSSC[C@@H](C(=O)N[C@@H](CCCNC(=N)N)C(=O)N[C@@H](CCCNC(=N)N)C(=O)N[C@@H](CCCNC(=N)N)C(=O)O)NC1=O)C(=O)N[C@@H](CO)C(=O)N[C@@H](CC(N)=O)C(=O)N1CCC[C@H]1C(=O)N[C@@H](C)C(=O)N2` the IC50 was 18.5 nM.
